Pooled drug test results. Numbers come from NIAID ChemDB, via PubChem.

Common to all: growth or infection tests; agent: Herpes simplex virus 1; cell line: VERO; endpoint: EC50

ECn is the concentration giving n% inhibition of infection, replication or growth.

structure | strain | read by | setting | result
Nc1nc(=O)n([C@H]2C=C(F)[C@@H](CO)O2)cc1F | KOS | cytopathic effect |  | 20 µM
Cc1cn([C@@H]2O[C@H](CO)[C@@H](O)[C@@H]2F)c(=O)[nH]c1=O | Shealey | plaque count |  | 0.9 µM
CC(=O)NC(CCc1ccc(Cl)c(Cl)c1)c1cccc(O)c(=O)c1 | Clinical isolate | plaque count |  | 0.42 µM
Cc1cn(C2SC[C@H](CO)[C@H]2CO)c(=O)[nH]c1=O |  | cytopathic effect |  | >100 µg/mL
CO[C@H]1C[C@H](n2cc(/C=C/Br)c(=O)[nH]c2=O)O[C@@H]1COP1(=O)OCc2cccc(C)c2O1 | B2006 (TK-) | plaque count |  | >128 µg/mL
CSCC[C@H](N)C(=O)OCCOCn1cnc2c(=O)[nH]c(N)nc21 | SC16 |  |  | 1.4 µM
Nc1nc2c(ncn2COC(CO)CO)c(=O)[nH]1 | H129 | plaque count |  | 0.16 µg/mL
Nc1[nH]c(=O)ncc1F | KOS | cytopathic effect |  | >5000 µM
CCOP(=O)(OCC)C1=NOC(Cn2cc(C)c(=O)[nH]c2=O)C1 |  | plaque count |  | >400 µM
Nc1nc2c(ncn2COC(CO)CO)c(=O)[nH]1 |  | cytopathic effect |  | 0.01–0.1 µM
CSc1nsc(C2CCCCC2)c1C#N | F strain | plaque count |  | >50 µM
CCOc1ccc(-c2cc(N(CC)CC)no2)c(O)c1 | ATCC VR733 | plaque count |  | >362 µM
Nc1nc2c(ncn2CCCCO)c(=O)[nH]1 | KJ502 | plaque count |  | 5 µM
C=Cc1c(C)c2cc3nc(c(C(=O)O)c4nc(cc5[nH]c(cc1[nH]2)c(C)c5CC)C(C)=C4C(=O)O)[C@@H](CCC(=O)O)[C@@H]3C |  | plaque count | 1% FBS | 20.93 µM
CCOP(=O)(OCC)C1=NOC(n2cc(F)c(=O)[nH]c2=O)C1 |  | plaque count |  | >100 µM
Nc1nc(=S)c2[nH]c(-c3cscn3)nc2[nH]1 |  | plaque count |  | >100 µg/mL
COc1ccc(-c2cc(N3CCCCC3)no2)c(O)c1 | ATCC VR733 | plaque count |  | >364 µM
CC[C@H](C)[C@H](N)C(=O)OCCOCn1cnc2c(=O)[nH]c(N)nc21 | SC16 |  |  | <6.25 µM
Nc1nc(=O)n([C@@H]2O[C@H](COP(=O)([O-])[O-])[C@@H](O)[C@H]2O)cc1F | KOS | cytopathic effect |  | 20 µM
NCCC(=O)OCCOCn1cnc2c(=O)[nH]c(N)nc21 | SC16 |  |  | 10.5 µM
CSc1nsc(-c2ccccc2Cl)c1C#N | F strain | plaque count |  | >5 µM
Nc1ncnc2c1ncn2N1C[C@H](CO)[C@H]1CO |  | cytopathic effect |  | 33.2 µg/mL
C=C(C)[C@@H]1CCc2c(O)c(O)c(=O)cc(C)c2C1 | Clinical isolate | plaque count |  | 0.35 µM
Nc1nc2c(ncn2COCCO)c(=O)[nH]1 |  |  |  | 0.08 µM
N#Cc1c(Cl)nsc1Cl | F strain | plaque count |  | >4 µM
O=c1[nH]c(=O)n([C@H]2C[C@H](O)[C@@H](CO[P@]3(=O)OCc4cccc(-c5ccccc5)c4O3)O2)cc1/C=C/Br | KUPKA (TK+) | plaque count |  | 0.26 µg/mL
Cc1cn(N2CC[C@H](CO)[C@H]2CO)c(=O)[nH]c1=O |  | cytopathic effect |  | >100 µg/mL
NCC(=O)OCCOCn1cnc2c(=O)[nH]c(N)nc21 | SC16 |  |  | 1.7 µM
CSc1nsc(-c2cccs2)c1C#N | F strain | plaque count |  | >6 µM
C=Cc1cn(CC(CO)CO)c(=O)[nH]c1=O | KOS (TK+) | plaque count |  | >25 µg/mL
Nc1nc2c(ncn2CC[C@@H](O)CO)c(=O)[nH]1 | KJ502 | plaque count |  | 7 µM
CCOc1ccc(-c2c3cc(O)c(=O)cc-3oc3cc(O)c(O)cc23)cc1 | Clinical isolate | plaque count |  | 4.2 µM
CCOc1ccc(-c2onc(N(CC)CC)c2Cc2c(N(CC)CC)noc2-c2ccc(O)cc2O)c(O)c1 | ATCC VR733 | plaque count |  | >17 µM
Nc1nc2c(ncn2C[C@]2(CO)C[C@H]2CO)c(=O)[nH]1 |  | cytopathic effect |  | 0.01–0.1 µM
Nc1nc(=O)n([C@@H]2CC[C@H](CO)O2)cc1F | VR-3 | plaque count |  | 18 µM
Cc1cc(C)c(OC(=O)c2ccc(Cl)cc2)c(=O)c(C)c1 | Clinical isolate | plaque count |  | 1.09 µM
C[C@@H](N)C(=O)OCCOCn1cnc2c(=O)[nH]c(N)nc21 | SC16 |  |  | 1.2 µM
CC/C=C\C/C=C\C/C=C\C/C=C\C/C=C\CCCC(=O)OC(CO[C@H]1O[C@H](CS(=O)(=O)O)[C@@H](O)[C@H](O)[C@H]1O)OC(=O)CCCCCCCCCCCCCCC |  |  |  | 42 µg/mL
Nc1nc2c(ncn2CC[C@@H](O)CO)c(=O)[nH]1 | 7935-72 | plaque count |  | 1.2 µM
O=c1[nH]c(=O)n([C@@H]2O[C@H](CO)[C@@H](O)[C@@H]2O)cc1/C=C/Br | VR-3 | plaque count |  | >1100 µM
Nc1nc2c(ncn2CCC(CO)CO)c(=O)[nH]1 |  | cytopathic effect |  | 0.1–1 µM
O=c1[nH]c(=O)n([C@H]2C[C@H](O)[C@@H](COP3(=O)OCc4c(ccc5ccccc45)O3)O2)cc1/C=C/Br | B2006 (TK-) | plaque count |  | >128 µg/mL
CCN(CC)c1cc(-c2ccc(OC)cc2O)on1 | ATCC VR733 | plaque count |  | >381 µM
COc1ncnc2c1ncn2[C@@H]1O[C@H](CO)[C@@H](O)[C@@H]1O |  | cytopathic effect |  | >100 µM
Nc1ncnc2c1ncn2N1CC[C@H](CO)[C@H]1CO |  | cytopathic effect |  | >100 µg/mL
O=c1[nH]c(=O)n([C@H]2C[C@H](O)[C@@H](COP3(=O)OCc4cccc(-c5ccccc5)c4O3)O2)cc1/C=C/Br | KUPKA (TK+) | plaque count |  | 0.41 µg/mL
CCN(CC)c1cc(-c2ccc(O)cc2O)on1 | ATCC VR733 | plaque count |  | >121 µM
Nc1nc(=O)n([C@@H]2O[C@H](CO)[C@@H](O)[C@@H]2F)cc1I | Shealey | plaque count |  | 0.5 µM
O=c1[nH]c(=O)n([C@H]2C[C@H](O)[C@@H](CO)O2)cc1/C=C/Br | KOS | plaque count |  | 0.15 µg/mL
CCN(CC)c1cc(-c2ccc(OC)cc2OC)on1 | ATCC VR733 | plaque count |  | >362 µM
CC(=O)c1c(O)c2c(c(C(=O)CC(C)C)c1O)OC(C(C)(C)O)C2 |  | cytopathic effect |  | 22.3 µM
Nc1nc2c(ncn2COCCO)c(=O)[nH]1 |  | cytopathic effect |  | 0.11 µM

The first 7 rows once more:

structure,strain,read by,setting,result
Nc1nc(=O)n([C@H]2C=C(F)[C@@H](CO)O2)cc1F,KOS,cytopathic effect,,20 µM
Cc1cn([C@@H]2O[C@H](CO)[C@@H](O)[C@@H]2F)c(=O)[nH]c1=O,Shealey,plaque count,,0.9 µM
CC(=O)NC(CCc1ccc(Cl)c(Cl)c1)c1cccc(O)c(=O)c1,Clinical isolate,plaque count,,0.42 µM
Cc1cn(C2SC[C@H](CO)[C@H]2CO)c(=O)[nH]c1=O,,cytopathic effect,,>100 µg/mL
CO[C@H]1C[C@H](n2cc(/C=C/Br)c(=O)[nH]c2=O)O[C@@H]1COP1(=O)OCc2cccc(C)c2O1,B2006 (TK-),plaque count,,>128 µg/mL
CSCC[C@H](N)C(=O)OCCOCn1cnc2c(=O)[nH]c(N)nc21,SC16,,,1.4 µM
Nc1nc2c(ncn2COC(CO)CO)c(=O)[nH]1,H129,plaque count,,0.16 µg/mL

Two numbers with a dash give a range or band. An empty or dashed field is not shown. Conditions beyond the fields shown may differ between rows.